## Screening data, single-dose tests

Mtb glucose medium: 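Phenotypic screen: M. tuberculosis growth, glucose 7H9 medium, 3 days; the read-out is not stated. Tested at 50 µM. Higher reads as more growth inhibition (inferred: compounds with an IC50 in retests scored well above the rest). Size under these conditions: about 69,000 compounds, about 760 of them at 50% or above in at least one test.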
Mtb cholesterol medium: 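Growth of Mycobacterium tuberculosis over 4 days (cholesterol / DPPC medium with tyloxapol); the read-out is not stated. Compounds at 50 µM. Direction is inferred from retests: higher values go with more growth inhibition. Size under these conditions: about 69,000 compounds, about 370 of them at 50% or above in at least one test.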

Results are given as percent effect.
How 0% and 100% were set is not recorded. Most values in the screen are low, and negative values occur.
This is part of a subset picked to be rich in strong results.
Two or more numbers in one place are separate tests of the same structure; such repeats can differ widely.
A dash means the value is not listed here; it may have been measured.

Compound,Mtb glucose medium,Mtb cholesterol medium
CN1CCN(C2CCN(CCOc3ccccc3F)CC2)C1=O,27.57%,-
Cc1ccc(NC2CCN(C(=O)Cc3cccc(F)c3)CC2)nn1,23.05%,-
CS(=O)(=O)CCN1CCC(=Cc2ccccc2)CC1,18.6%,-2.791%
COc1cc(C)c(CN2CCc3nc4ccsc4c(=O)n3CC2)cc1C,0.8756%,-17.03%
N#Cc1cccc(N2CCCC(CO)(CCOc3ccccc3)C2)n1 (stereo not drawn),-,2.391%
Cc1cccc(NC(C)C(=O)Nc2nccs2)c1 (stereo not drawn),33.96% & 16.51%,-14.2%
Cc1ccc2nc(CN(C)Cc3[nH]nc4c3CCC4)[nH]c2c1C,27.73%,-
Cc1ccc(CN(CCCn2ccnc2)Cc2cc(F)ccc2F)s1.O=C(O)CC(O)(CC(=O)O)C(=O)O,59.69%,-
CCCc1nc(C)cc(N2CCC3(CCC(=O)N(CCOC)C3)CC2)n1,15.24%,-
CCN(Cc1ccccc1)C(=O)CCN1CC(O)C1,18.69% & 50.07%,-
CNc1nc2c(s1)C(c1cc(Cl)ccc1F)CC(=O)N2 (stereo not drawn),27.4%,-
COc1coc(CN2CCCC(CCc3ccccc3F)C2)cc1=O (stereo not drawn),26.11% & 47.04%,-
Fc1cccc(OC2CCN(Cc3ncc[nH]3)CC2)c1,-21.66%,-
CCN(C(=O)CN1CCCC1c1ccc(OC)cc1)c1ccccc1C (stereo not drawn),48.62%,-
COc1cnc(C2(O)CCN(C(=O)c3ccncc3)CC2)c(OC)n1,-,-13.83%
CCn1cnnc1Cc1nc2c([nH]1)CC(c1ccc(Cl)cc1)CNC2=O (stereo not drawn),-,-25.4%
CC(C)NC(=O)NC(C)c1ccc(-c2ccncc2)cc1 (stereo not drawn),-,-8.231%
Cc1n[nH]c(C)c1CCNC(=O)C1CCCN(Cc2ccco2)C1 (stereo not drawn),-,51.32%
Cc1ccsc1[C@@H]1CCN(C(=O)CCC(=O)N2CCCCCC2)C[C@H]1O,-15.86% & 31.13%,-
Cc1nc(C)c2c(n1)CCN(Cc1ccsc1)CC2,3.662% & 26.6%,15.99% & 28.71%
Cc1nn(C)c(C)c1-c1cnc(C2CCCN(C)C2)cn1 (stereo not drawn),20.43%,-
CC(=O)N1CCCC1c1nnn2cc(NCc3cccnc3)ccc12.O=C(O)C(F)(F)F.O=C(O)C(F)(F)F (stereo not drawn),-,-1.414% & -23.68%
CC(C)Cc1ncc2c(n1)CN(c1nc3ccccc3cc1CO)C2,11.17% & -7.182%,-
O=C(c1ccn(COc2ccc(F)cc2)n1)N1CCCCCC1,-1.878%,14.95%
c1cnnc(N2CCCC2CNCc2nc3ccccc3o2)c1 (stereo not drawn),55.87%,51.27%
CC(C)(CNC(=O)CSc1nnnn1C1CC1)c1ccccc1F,-2.892% & -1.479%,-
NC(=O)C1CCN(Cc2ccc(S(=O)(=O)N3CCCC3)o2)CC1,-13.51% & 110%,-
CC1CCN(C(CNC(=O)Cn2cccn2)c2cccs2)CC1 (stereo not drawn),-,3.867%
O=C(NCCc1cccc(F)c1)C1(n2cnnn2)CCCCC1,62.84%,-
Cc1cc(NCCC(=O)NC2CCCCC2)nc(-c2ccncc2)n1,8.08%,-
CC(C)NCc1nc(-c2ccc3c(c2)OCO3)c[nH]1.Cl.Cl,111.8% & 3.985%,-
OC1CCN([C@@H]2CCN(c3nc(-c4ccccc4)no3)C[C@H]2O)CC1,-18.46%,-
Cc1ccc(C(=O)N2CC(Oc3ccccc3C)C2)s1,81.12%,61.21%
Cc1nc(CN2CCOC3(CCCC3)C2)oc1C,17.29%,-
COC(=O)CCc1c(C)nn(-c2nc(C)cc(=O)[nH]2)c1C,46.98%,-
CN(C)c1nc(N)nc(CN2CCCC2c2cccs2)n1 (stereo not drawn),0.4608%,-
c1cc(N2CCOCC(Cc3ccc4[nH]ccc4c3)C2)ncn1 (stereo not drawn),4.125%,-
Cc1noc(COCC(=O)Nc2ccc(Br)c(C)n2)n1,41.42%,-
CCCc1nn(Cc2ccc(Br)s2)c(=O)o1,56.33%,73.39%
COc1ccnc(NC(Cc2ccccc2)C(=O)N(C)C)n1 (stereo not drawn),-,33.38% & 3.454%
COc1ccc(-c2nc(CN3CC(n4cc(C)cn4)C3)no2)cc1,-,51.03%
CC(C)c1cc(C(=O)N2CCCN(Cc3ccccc3)CC2)n[nH]1,36.59% & 4.328%,-
Cc1nn(C)cc1S(=O)(=O)NCC(c1ccccc1)N1CCCCCC1.Cl (stereo not drawn),-,33.41% & 89.95%
CCCc1cncnc1N1CCC(NCc2ccc(O)cc2)CC1,2.423% & -3.44%,-17.39%
O=C(c1ccc2c(c1)OCO2)N1C[C@@H](CN2CCCCC2)[C@@H](CO)C1,-2.863%,-
O=C(NCCC1=CCCCC1)c1ccc(-n2cccc2)nc1,-17.68%,-12.03%
CCCn1ccnc1CN1CCCC1c1ccccn1 (stereo not drawn),12.94% & 111.5%,-
O=C1Nc2ccccc2CN(CC2CCCC2)C12CCNC2 (stereo not drawn),70.11%,57.76%
Fc1ccc(Cn2ncc3c2CN(c2ncccn2)C3)cc1,-,8.068% & 21.15%
CNC1CCN(C2CCN(c3ccc(-c4ccco4)cc3)CC2)CC1,63.29% & 32.16%,-
CSc1ncc(C(=O)N2CCN(c3ccccc3C)CC2C)cn1 (stereo not drawn),62.95%,-
CCOCC(=O)NC(C)Cc1ccccc1Br (stereo not drawn),62.76%,-
CCc1nc2c(NCC3COc4cc(OC)ccc4C3)ncnc2o1 (stereo not drawn),-7.146%,-
CCOc1cccc(C(=O)Nc2ccn(CC)n2)c1,27.43%,-
NC(=O)Nc1cccc(Oc2ccccn2)c1,-8.351% & 2.312%,-
Nc1cc(N2CCCC(COc3ccc(F)cc3)C2)nc(N)n1 (stereo not drawn),12.26%,12.36%
COc1ccc2cc(C(=O)NCCc3nc(C)no3)[nH]c2c1,-4.268%,-
Br.Cc1cccc(N(CC(=O)c2ccccc2)C2=NCCCCC2)c1,54.95%,25.53%
COC(=O)C1CCN(C(=O)c2cccc(NS(C)(=O)=O)c2C)CC1,-11.67%,-
Cc1cc(C)c2nc(C)cc(C(=O)NCc3csc(N(C)C)n3)c2c1,-68.55%,-36.31%
C=Cc1ccc(C(=O)N2CCCC(Nc3ccccc3)C2)cc1 (stereo not drawn),-,29.82% & 25.98%

Repeated from the top, 5 entries:

CN1CCN(C2CCN(CCOc3ccccc3F)CC2)C1=O read Mtb glucose medium: 27.57%.
Cc1ccc(NC2CCN(C(=O)Cc3cccc(F)c3)CC2)nn1 read Mtb glucose medium: 23.05%.
CS(=O)(=O)CCN1CCC(=Cc2ccccc2)CC1 read Mtb glucose medium: 18.6%; Mtb cholesterol medium: -2.791%.
COc1cc(C)c(CN2CCc3nc4ccsc4c(=O)n3CC2)cc1C read Mtb glucose medium: 0.8756%; Mtb cholesterol medium: -17.03%.
N#Cc1cccc(N2CCCC(CO)(CCOc3ccccc3)C2)n1 (stereo not drawn) read Mtb cholesterol medium: 2.391%.

Measurements from “University of Dundee, Small-Polar-MMV Screening Library” (2021), ChEMBL document CHEMBL3988442.